Data from paper PMC9959676 (Molecules, 2023).

What was measured:
Assay in all cases: Antibacterial agar-well diffusion
Assay type in all cases: cell-based
Settings in all cases: sample 100 mg/5 mL in DMSO; ceftriaxone sodium 20 mg/10 mL; 37 °C, 24 h; 6 mm wells
Staphylococcus aureus = tested on: Staphylococcus aureus
Escherichia coli = tested on: Escherichia coli
Pseudomonas aeruginosa = tested on: Pseudomonas aeruginosa

SMILES: CCCCC(=O)N(Cc1ccc(-c2ccccc2-c2nn[nH]n2)cc1)C(C(=O)Oc1c([N+](=O)[O-])cc([N+](=O)[O-])cc1[N+](=O)[O-])C(C)C (stereo not drawn)
- Zone of Inhibition Gram +ve Bacteria S. aureus Mean ± SEM (Staphylococcus aureus): 11.53 ± 0.58 millimeters
- Zone of Inhibition Gram -Ve Bacteria E. coli Mean ± SEM (Escherichia coli): 10.93 ± 0.58 millimeters
- Zone of Inhibition Gram -Ve Bacteria P. aeruginosa Mean ± SEM (Pseudomonas aeruginosa): 11.73 ± 0.33 millimeters
